# Record: PubChem BioAssay AID1259414 (Drosophila RNAi Screening Center, 2018)
# Purpose: 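Genome-wide screen for host control of endosymbiont load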 (primary screen)
# System: Drosophila JW18 cells infected with Wolbachia
# Reagent: long dsRNA against Drosophila genes, 0.25 µg dsRNA per well of a 384-well plate
# Time to read-out: 5 days
# Treatment: cells persistently infected with Wolbachia before knock-down; no added drug
# Measured: 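Automated imaging of bacterial rRNA staining divided by host cell count, reported as plate-normalised robust z-score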
# Reading the numbers: Wolbachia per cell robust z: higher = more Wolbachia per host cell than the plate typical
# Rule for the call: 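Active if absolute robust z reaches 1.5 in two or more of three replicates, leaving out multi- or no-target dsRNAs, genes unexpressed in JW18 and A1 wells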
# The screen tested about 24,000 reagents; shown is an unselected part of those that have a named target and a result. Of all reagents, about 1,210 (5%) were called active. 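Inactive calls also include excluded dsRNAs with several or no targets, genes unexpressed in JW18, and well A1, regardless of score.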 Reagents against one gene are numbered here. A plus sign joins genes that one reagent is predicted to hit.
target gene,dsRNA no.,"Wolbachia per cell robust z, rep 1","Wolbachia per cell robust z, rep 2","Wolbachia per cell robust z, rep 3",Outcome
CG13907,1,-0.0573,-0.448,-0.061,inactive
CG13907,2,0.197,0.504,-0.917,inactive
CG2150,1,1.04,0.005,-0.152,inactive
amd,1,0.757,0.387,0.617,inactive
amd,2,0.663,-0.085,0.128,inactive
CG3927 + nsr,1,-6.05,-1.39,-1.42,inactive
CG12617,1,0.928,0.975,0.0895,inactive
CG12617,2,0.918,-0.122,0.33,inactive
Cpr47Ee,1,-0.21,-0.112,0.403,inactive
mof,1,0.44,-2.8,0.231,inactive
mof,2,-0.163,-2.05,-1.4,inactive
Paf-AHalpha,1,-1.58,0.534,0.383,inactive

Continued, starting with the last 3 of the part before.
target gene,dsRNA no.,"Wolbachia per cell robust z, rep 1","Wolbachia per cell robust z, rep 2","Wolbachia per cell robust z, rep 3",Outcome
mof,1,0.44,-2.8,0.231,inactive
mof,2,-0.163,-2.05,-1.4,inactive
Paf-AHalpha,1,-1.58,0.534,0.383,inactive
CG9795,1,-2.09,-0.532,-0.719,inactive
CG9795,2,-0.459,-0.0989,-1.03,inactive
CG5327 + CG5493,1,0.707,0.0421,0.776,inactive
CG8774,1,0.411,-0.399,-0.182,inactive
CG9590,1,0.044,0.612,0.528,inactive
CG15650,1,0.85,1.01,-1.22,inactive
CG10669,1,-4.12,-1.02,1.28,inactive
CG15820,1,-1.17,-1.09,-6.78,inactive
CG15820,2,-0.15,-0.82,0.126,inactive
sna,1,-0.807,0.651,1.03,inactive
CG17574,1,-0.173,-1.31,0.771,inactive
CG15141,1,-1.8,-1.1,-1.15,inactive
CG15141,2,0.115,0.57,-0.305,inactive
CG15141,3,-0.612,-0.746,0.374,inactive
CG17490,1,1.26,0.265,-1.42,inactive
CG17490,2,-0.28,-0.148,0.643,inactive
